Data reported in patent US20100016367A1, “BIS-PYRINIDIUM COMPOUNDS” (priority 2006, published 2010).

Tests used:
[1] = system: Exophiala spinifera 03-200803; assay: Antifungal MIC, broad spectrum; format: cell-based; conditions: Table 1b
[2] = system: Paecilomyces lilacinus 05-200601; assay: Antifungal MIC, broad spectrum; format: cell-based; conditions: Table 1b
[3] = system: Fusarium solani 04-203102; assay: Antifungal MIC, broad spectrum; format: cell-based; conditions: Table 1b
[4] = system: Exophiala jeanselmei 03-200268; assay: Antifungal MIC, broad spectrum; format: cell-based; conditions: Table 1b
[5] = system: Absidia corymbifera 04-200170; assay: Antifungal MIC, broad spectrum; format: cell-based; conditions: Table 1b
[6] = system: Rhizopus oryzae 05-203111; assay: Antifungal MIC, broad spectrum; format: cell-based; conditions: Table 1b
C. albicans ATCC 10231 = assay: Antifungal susceptibility assay, MIC; format: cell-based, Candida albicans
C. krusei ATCC 9258 = assay: Antifungal MIC, broad spectrum; format: cell-based, Candida krusei; conditions: Table 1b
C. krusei ATCC 6258 = assay: Antifungal MIC, broad spectrum; format: cell-based, Candida krusei; conditions: Table 1b
C. krusei 04-202328 = assay: Antifungal MIC, broad spectrum; format: cell-based, Candida krusei; conditions: Table 1b
S. apiospermum 05-203100 = assay: Antifungal MIC, broad spectrum; format: cell-based, Scedosporium apiospermum; conditions: Table 1b
A. fumigatus 05-203114 = assay: Antifungal MIC, broad spectrum; format: cell-based, Aspergillus fumigatus; conditions: Table 1b
A. fumigatus ATCC 204305 = assay: Antifungal MIC, broad spectrum; format: cell-based, Aspergillus fumigatus; conditions: Table 1b
[7] = system: C. parapsilosis 04-202398; assay: Antifungal MIC, broad spectrum; format: cell-based, Candida parapsilosis; conditions: Table 1b
[8] = system: C. parapsilosis ATCC 22019; assay: Antifungal MIC, broad spectrum; format: cell-based, Candida parapsilosis; conditions: Table 1b
C. tropicalis 04-202361 = assay: Antifungal MIC, broad spectrum; format: cell-based, Candida tropicalis; conditions: Table 1b
[9] = system: Cunninghamella berth 99-12187; assay: Antifungal MIC, broad spectrum; format: cell-based, Cunninghamella bertholletiae; conditions: Table 1b
A. flavus ATCC 204304 = assay: Antifungal MIC, broad spectrum; format: cell-based, Aspergillus flavus; conditions: Table 1b
A. flavus 05-203758 = assay: Antifungal MIC, broad spectrum; format: cell-based, Aspergillus flavus; conditions: Table 1b
C. neoformans ATCC 90112 = assay: Antifungal susceptibility assay, MIC; format: cell-based, Cryptococcus neoformans
C. glabrata 04-202345 = assay: Antifungal MIC, broad spectrum; format: cell-based, Candida glabrata; conditions: Table 1b
A. terreus 05-202844 = assay: Antifungal MIC, broad spectrum; format: cell-based, Aspergillus terreus; conditions: Table 1b
C. albicans ATCC 90028 = assay: Antifungal MIC, broad spectrum; format: cell-based, Candida albicans; conditions: Table 1b
C. gattii 05-200122 = assay: Antifungal MIC, broad spectrum; format: cell-based, Cryptococcus gattii; conditions: Table 1b
S. prolificans 05-203060 = assay: Antifungal MIC, broad spectrum; format: cell-based, Scedosporium prolificans; conditions: Table 1b
C. neoformans 05-202523 = assay: Antifungal MIC, broad spectrum; format: cell-based, Cryptococcus neoformans; conditions: Table 1b

Compound	MIC Exophiala spinifera 03-200803 [1] [µM]	MIC Paecilomyces lilacinus 05-200601 [2] [µM]	MIC Fusarium solani 04-203102 [3] [µM]	MIC Exophiala jeanselmei 03-200268 [4] [µM]	MIC Absidia corymbifera 04-200170 [5] [µM]	MIC Rhizopus oryzae 05-203111 [6] [µM]	MIC C. albicans ATCC 10231 (C. albicans ATCC 10231; Table 1b) [µM]	MIC C. krusei ATCC 9258 (C. krusei ATCC 9258) [µM]	MIC C. krusei ATCC 6258 (C. krusei ATCC 6258) [µM]	MIC C. krusei 04-202328 (C. krusei 04-202328) [µM]	MIC S. apiospermum 05-203100 (S. apiospermum 05-203100) [µM]	MIC A. fumigatus 05-203114 (A. fumigatus 05-203114) [µM]	MIC A. fumigatus ATCC 204305 (A. fumigatus ATCC 204305) [µM]	MIC C. parapsilosis 04-202398 [7] [µM]	MIC C. parapsilosis ATCC 22019 [8] [µM]	MIC C. tropicalis 04-202361 (C. tropicalis 04-202361) [µM]	MIC Cunninghamella berth 99-12187 [9] [µM]	MIC A. flavus ATCC 204304 (A. flavus ATCC 204304) [µM]	MIC A. flavus 05-203758 (A. flavus 05-203758) [µM]	MIC C. neoformans ATCC 90112 (C. neoformans ATCC 90112; Table 1b) [µM]	further results
CCCCCc1cc[n+](CCCCCCCCCCCC[n+]2ccc(CCCCC)c(CCCCC)c2)cc1CCCCC	2.75	22	22	2.75	22	2.75	2.75	2.75	2.75	2.75	5.5	11	11	11	2.75	2.75	11	11	22	2.75	MIC C. glabrata 04-202345 (C. glabrata 04-202345): 1.4 µM; MIC A. terreus 05-202844 (A. terreus 05-202844): 1.4 µM; MIC C. albicans ATCC 90028 (C. albicans ATCC 90028): 2.75 µM; MIC C. gattii 05-200122 (C. gattii 05-200122): 2.75 µM; MIC S. prolificans 05-203060 (S. prolificans 05-203060): 2.75 µM; MIC C. neoformans 05-202523 (C. neoformans 05-202523): 11 µM
CCCCCc1cccc[n+]1CCCCCCCCCCCC[n+]1ccccc1CCCCC	0.7	>87.5	44	1.4	>87.5	5.5	2.75	44	44	44	2.75	>87.5	>87.5	87.5	1.4	1.4	87.5	>87.5	>87.5	11	MIC C. albicans ATCC 10231 (C. albicans ATCC 10231; Table 1): 2.7 µM; MIC C. albicans ATCC 10231 (C. albicans ATCC 10231; Table 1c): 2.75 µM; MIC C. neoformans ATCC 90112 (C. neoformans ATCC 90112; Table 1): 11 µM; MIC C. neoformans ATCC 90112 (C. neoformans ATCC 90112; Table 1c): 11 µM; MIC C. glabrata 04-202345 (C. glabrata 04-202345): 0.7 µM; MIC A. terreus 05-202844 (A. terreus 05-202844): 1.4 µM; MIC C. albicans ATCC 90028 (C. albicans ATCC 90028): 2.75 µM; MIC C. gattii 05-200122 (C. gattii 05-200122): 2.75 µM; MIC S. prolificans 05-203060 (S. prolificans 05-203060): 2.75 µM; MIC C. neoformans 05-202523 (C. neoformans 05-202523): 87.5 µM
C=CCCCc1cc[n+](CCCCCCCCCCCC[n+]2ccc(CCCC=C)cc2)cc1	1.4	>87.5	87.5	11	>87.5	11	2.75	22	11	22	22	>87.5	>87.5	87.5	2.75	2.75	>87.5	>87.5	>87.5	22	MIC C. glabrata 04-202345 (C. glabrata 04-202345): 2.75 µM; MIC A. terreus 05-202844 (A. terreus 05-202844): 2.75 µM; MIC C. albicans ATCC 90028 (C. albicans ATCC 90028): 2.75 µM; MIC C. gattii 05-200122 (C. gattii 05-200122): 2.75 µM; MIC S. prolificans 05-203060 (S. prolificans 05-203060): 2.75 µM; MIC C. neoformans 05-202523 (C. neoformans 05-202523): 22 µM
